Anti-infective test results gathered from many reports (values: NIAID ChemDB through PubChem).

All rows: growth or infection tests; agent: Mycobacterium avium complex

Two numbers with a dash give a range or band. A number after MIC or MFC names an inhibition level or a share of isolates. Blank or dashed fields: not listed here. Conditions beyond the fields shown may differ between rows.

structure	strain or isolate	read by	read-out	value
CC[C@@H](CO)NCCN[C@@H](CC)CO	168-4	-	MIC	7.5 µg/mL
CC[C@@H](CO)NCCN[C@@H](CC)CO	921	-	MBC	15 µg/mL
COc1c(N2CCNC(C)C2)c(F)cc2c(=O)c(C(=O)O)cn(C3CC3)c12	N-444	-	MIC	2 µg/mL
C[C@@H]1CN(c2c(F)c(N)c3c(=O)c(C(=O)O)cn(C4CC4)c3c2F)C[C@H](C)N1	10	broth dilution	MIC	0.12 µg/mL
CC1CN(c2c(F)cc3c(=O)c(C(=O)O)cn(C4CC4)c3c2Br)CC(C)N1	14 strains	-	MIC90	4 µg/mL
CN[C@@H]1[C@H](O[C@H]2[C@H](O[C@H]3[C@H](O)[C@@H](O)[C@H](N=C(N)N)[C@@H](O)[C@@H]3N=C(N)N)O[C@@H](C)[C@]2(O)C=O)O[C@@H](CO)[C@H](O)[C@H]1O	N-966	-	MIC	16 µg/mL
CN1CCCC1CCN=c1cc2n(-c3ccc(Cl)cc3)c3ccccc3nc-2cc1Nc1ccccc1	10 srtains	-	MIC90	2 µg/mL
NNC(=O)c1ccncc1	-	-	MIC	>1 µg/mL
CCC(C)N1CCN(c2cc(=O)c3nc4c(oc3c2)c2c(=O)c3c(O)c(C)c5c(c34)=C(O)[C@@](C)(O/C=C/[C@H](OC)[C@@H](C)[C@@H](OC(C)=O)[C@H](C)[C@H](O)[C@H](C)[C@@H](O)[C@@H](C)/C=C/C=C(/C)C(=O)N2)O5)CC1	20 strains	-	MIC90	0.3 µg/mL
CC1COc2c(N3CCN(C)CC3)c(F)cc3c(=O)c(C(=O)O)cn1c23	CIPT 140310034	-	MIC	10 µg/mL
CO[C@H]1/C=C/O[C@@]2(C)Oc3c(C)c(O)c4c(O)c(c(/C=N/N5CCN(C6CCCC6)CC5)c(O)c4c3C2=O)NC(=O)/C(C)=C\C=C\[C@H](C)[C@H](O)[C@@H](C)[C@@H](O)[C@@H](C)[C@H](OC(C)=O)[C@@H]1C	Serotype 9	-	MIC	>40 µg/mL
CCn1cc(C(=O)O)c(=O)c2cc(F)c(N3CCN4CCC3C4)nc21	14 strains	-	MIC50	≥32 µg/mL
CC1COc2c(N3CCN(C)CC3)c(F)cc3c(=O)c(C(=O)O)cn1c23	20 strains	-	MIC90	3.13–6.25 µg/mL
COc1c(N2CCN(C(C)C)CC2)c(F)cc2c(=O)c(C(=O)O)cn(C3CC3)c12	14 strains	-	MIC50	2 µg/mL
C[C@@H]1CN(c2c(F)c(N)c3c(=O)c(C(=O)O)cn(C4CC4)c3c2F)C[C@H](C)N1	20 strains	-	MIC50	0.2 µg/mL
CC(C)N1CCN(c2cc3c(cc2F)c(=O)c(C(=O)O)cn3C2CC2)CC1	14 strains	-	MIC90	8 µg/mL
CO[C@H]1/C=C/O[C@@]2(C)Oc3c(C)c(O)c4c(O)c(c(/C=N/N5CCN(C)CC5)c(O)c4c3C2=O)NC(=O)/C(C)=C\C=C\[C@H](C)[C@H](O)[C@@H](C)[C@@H](O)[C@@H](C)[C@H](OC(C)=O)[C@@H]1C	N-966	-	MIC	>100 µg/mL
CO[C@H]1/C=C/O[C@@]2(C)Oc3c(C)c(O)c4c(O)c(c5c(c4c3C2=O)NC2(CCN(CC(C)C)CC2)N=5)=NC(=O)/C(C)=C\C=C\[C@H](C)[C@H](O)[C@@H](C)[C@@H](O)[C@@H](C)[C@H](OC(C)=O)[C@@H]1C	101	-	MIC	2 µg/mL
CCC1CN(c2cc3c(cc2F)c(=O)c(C(=O)O)cn3C2CC2)CCN1	14 strains	-	MIC90	4 µg/mL
CC[C@@H](CO)NCCN[C@@H](CC)CO	N-966	-	MIC	32 µg/mL
CCn1cc(C(=O)O)c(=O)c2cc(F)c(N3CCNCC3)cc21	Isolate 861589	-	MIC	>30 µg/mL
CN1CCN(CCCN=c2cc3n(-c4ccc(Cl)cc4)c4ccccc4nc-3cc2Nc2ccccc2)CC1	10 srtains	-	MIC50	0.45 µg/mL
O=C(O)c1cn(C2CC2)c2c(Cl)c(N3CCNCC3)c(F)cc2c1=O	14 strains	-	MIC50	2 µg/mL
CO[C@H]1/C=C/O[C@@]2(C)Oc3c(C)c(O)c4c(O)c(c(/C=N/N5CCN(C6CCCC6)CC5)c(O)c4c3C2=O)NC(=O)/C(C)=C\C=C\[C@H](C)[C@H](O)[C@@H](C)[C@@H](O)[C@@H](C)[C@H](OC(C)=O)[C@@H]1C	LPR	-	MIC	0.25 µg/mL
CO[C@H]1/C=C/O[C@@]2(C)Oc3c(C)c(O)c4c(O)c(c5c(c4c3C2=O)NC2(CCN(CC(C)C)CC2)N=5)=NC(=O)/C(C)=C\C=C\[C@H](C)[C@H](O)[C@@H](C)[C@@H](O)[C@@H](C)[C@H](OC(C)=O)[C@@H]1C	9838	-	MBC	16 µg/mL
CC[C@@H](CO)NCCN[C@@H](CC)CO	MO-1	-	MIC	16 µg/mL
CC[C@@H](CO)NCCN[C@@H](CC)CO	-	-	MIC50	<0.5 µg/mL
CO[C@H]1/C=C/O[C@@]2(C)Oc3c(C)c(O)c4c(O)c(c(/C=N/N5CCN(C)CC5)c(O)c4c3C2=O)NC(=O)/C(C)=C\C=C\[C@H](C)[C@H](O)[C@@H](C)[C@@H](O)[C@@H](C)[C@H](OC(C)=O)[C@@H]1C	10 isolates (HIV+)	-	MIC50	1 µg/mL
CC[C@H]1OC(=O)[C@H](C)[C@@H](O[C@H]2C[C@@](C)(OC)[C@@H](O)[C@H](C)O2)[C@H](C)[C@@H](O[C@@H]2O[C@H](C)C[C@H](N(C)C)[C@H]2O)[C@](C)(OC)C[C@@H](C)C(=O)[C@H](C)[C@@H](O)[C@]1(C)O	-	-	MIC	<0.5 µg/mL
CO[C@H]1/C=C/O[C@@]2(C)Oc3c(C)c(O)c4c(O)c(c(/C=N/N5CCN(C)CC5)c(O)c4c3C2=O)NC(=O)/C(C)=C\C=C\[C@H](C)[C@H](O)[C@@H](C)[C@@H](O)[C@@H](C)[C@H](OC(C)=O)[C@@H]1C	101	-	MIC	16 µg/mL

2 of the rows above, restated:

structure,strain or isolate,read by,read-out,value
CCC1CN(c2cc3c(cc2F)c(=O)c(C(=O)O)cn3C2CC2)CCN1,14 strains,-,MIC90,4 µg/mL
CCC(C)N1CCN(c2cc(=O)c3nc4c(oc3c2)c2c(=O)c3c(O)c(C)c5c(c34)=C(O)[C@@](C)(O/C=C/[C@H](OC)[C@@H](C)[C@@H](OC(C)=O)[C@H](C)[C@H](O)[C@H](C)[C@@H](O)[C@@H](C)/C=C/C=C(/C)C(=O)N2)O5)CC1,20 strains,-,MIC90,0.3 µg/mL